Values quoted from earlier work as cited in patent US20120283249A1, “Novel compounds which have a protective activity with respect to the action of toxins and of viruses with an intracellular mode of action” (published 2012).

Experiments:
[1] = target: ricin A chain (RTA) N-glycosylase (Ricinus communis, UniProt P02879); conditions: read-out: inhibition constant, N-glycosylase activity; enzymatic test
[2] = target: ricin (Ricinus communis, UniProt P02879); conditions: ricin inhibitors

Row | Compound | Ki [1] | IC50 [2]
1 | Nc1nc2ncc(CNc3ccc(C(=O)O)cc3)nc2c(=O)[nH]1 | 600 µM | 
2 | OC[C@H]1O[C@@H](O[C@H]2[C@H](O)[C@@H](O)C(O)O[C@@H]2CO)[C@H](O)[C@@H](O)[C@H]1O (some centres unmarked) |  | 740 µM
